Test system: enterobacteria
Assay: 13C breath test: Δ13C value in exhaled breath after oral ^13C-mannitol
Type: in vivo, human

## ^13C-mannitol
Healthy subject, 300 mg ^13C-mannitol in 100 mL water, oral, from immediately after to 180 minutes after the administration, FIG. 1
  Δ^13C value (‰) in exhaled breath: −0.5 to 0.9 ‰
Subject suffering from an irritable bowel syndrome, oral aqueous ^13C-mannitol, at 30 minutes after the administration, then decreased, FIG. 2
  Δ^13C value (‰) in exhaled breath: 8 ‰
Subject suffering from an irritable bowel syndrome, oral aqueous ^13C-mannitol, within 20 minutes after the administration, FIG. 2
  Δ^13C value (‰) in exhaled breath: 5 ‰

Source: patent US20150050744A1, “DIAGNOSTIC AGENT AND DIAGNOSTIC METHOD FOR IRRITABLE BOWEL SYNDROME INDUCED BY ABNORMAL PROLIFERATION OF ENTEROBACTERIA” (TRI-X BIOMEDICAL, INC., priority 2012, published 2015)
